Compound potency records, mixed from different reports. Data source: NIAID ChemDB in PubChem.

Shared fields: tests in culture; organism: Pneumocystis carinii; measure: inhibition

Percent inhibition refers to the dose given; in toxicity tests it is the harm to the cells.

SMILES,cell line,conditions,tested at,result
CN=C(N)c1ccc(N2CCN(c3ccccc3)CC2)cc1,-,-,50 µg/mL,62%
CC(=O)N(O)CCCCCNC(=O)CCC(=O)N(O)CCCCCNC(=O)CCC(=O)N(O)CCCCCN,Human fibroblasts,7 d,30 µM,81%
NC(=NCC1CCCC1)c1ccc(N2CCCN(c3ccc(C(N)=NCC4CCCC4)cc3)CC2)cc1,-,-,1 µM,0%
CCCCCCCCN=C(N)c1ccc(N2CCN(c3ccccc3)CC2)cc1,-,-,50 µg/mL,80%
CC(C(O)(Cn1cncn1)c1ccc(F)cc1F)S(C)(=O)=O,WI-38,10 d,10 µg/mL,0%
N=C(N)c1ccc(N2CCCN(c3ccc(C(=N)N)cc3)CC2)cc1,-,-,1 µM,100%
CN(C)c1nc(N)c(C(=O)N=C(N)N)nc1Cl,-,-,100 µM,31%
OC(Cn1cncn1)(Cn1cncn1)c1ccc(F)cc1F,WI-38,10 d,10 µg/mL,20%
CC(C)N=C(N)c1ccc(N2CCN(c3ccccc3)CC2)cc1,-,-,50 µg/mL,88%
NC(=NCC1CC1)c1ccc(N2CCCN(c3ccc(C(N)=NCC4CC4)cc3)CC2)cc1,-,-,1 µM,67%
CCc1c(O)c(=O)ccn1CC,Human fibroblasts,7 d,72 µM,85%
NC(=NCCc1ccccc1)c1ccc(N2CCN(c3ccccc3)CC2)cc1,-,-,50 µg/mL,95%
c1ccc(CNCCCNCCCCCCCNCCCNCc2ccccc2)cc1,-,-,30 µM,77%
O=C(Cn1ccnc1[N+](=O)[O-])NCCO,WI-38,10 d,10 µg/mL,27%
NC(=NCCc1ccc(F)cc1)c1ccc(N2CCN(c3ccccc3)CC2)cc1,-,-,50 µg/mL,96%
Cc1c(O)c(=O)ccn1C,Human fibroblasts,7 d,72 µM,74%
CC(=O)Nc1ccc(C(=O)O)cc1,-,-,1 µM,0%
CCC(CC)N=C(N)c1ccc(N2CCN(c3ccccc3)CC2)cc1,-,-,10 µg/mL,93%

3 of the rows above, restated:

SMILES	cell line	conditions	tested at	result
CCc1c(O)c(=O)ccn1CC	Human fibroblasts	7 d	72 µM	85%
CCC(CC)N=C(N)c1ccc(N2CCN(c3ccccc3)CC2)cc1	-	-	10 µg/mL	93%
CC(=O)N(O)CCCCCNC(=O)CCC(=O)N(O)CCCCCNC(=O)CCC(=O)N(O)CCCCCN	Human fibroblasts	7 d	30 µM	81%

Rows are shuffled and stem from different studies. An empty or dashed field is not shown.